Pooled drug test results. Numbers come from NIAID ChemDB, via PubChem.

All rows: tests in culture; species: HIV-1; read by: antigen; endpoint: EC50

ECn is the concentration giving n% inhibition of infection, replication or growth. Blank or dashed fields: not listed here. a–b is a range or a potency band. Conditions beyond the fields shown may differ between rows.

SMILES | conditions | cell line | strain or isolate | changes | result
Cc1cn([C@H]2C[C@H](N=[N+]=[N-])[C@@H](COC(=O)C(=O)N[C@@H](CO)C(=O)N[C@@H](Cc3ccccc3)C(=O)N[C@@H](CC(C)C)C(=O)N[C@H](C(=O)O)[C@@H](C)O)O2)c(=O)[nH]c1=O | - | MT-4 | IIIB | - | 0.022 µM
c1cc(CN2CCCNCCNCCCNCC2)ccc1CN1CCCNCCNCCCNCC1 | - | PBMC | JR-FL R5 | - | >25 µg/mL
COC(=O)[C@@H](C)NC(=O)c1c(C)cc2c(c1O)-c1c(cc3c(c1O)C(=O)c1cc(OC)cc(O)c1C3=O)[C@H](O)[C@H]2O[C@@H]1O[C@H](CO)[C@H](N)[C@H](O)[C@H]1O | - | MT-4 | IIIB | - | <30 µg/mL
CCc1cc(NCc2nc3c(Cl)ccc(Cl)c3o2)c(=O)[nH]c1C | - | H9 | MN | - | 0.067 µM
COc1cc(O)c2c(c1)C(=O)c1c(cc3c(c1O)-c1c(cc(C)c(C(=O)N[C@H](C)C(=O)O)c1O)[C@H](O[C@@H]1O[C@H](C)[C@H](N)[C@H](O[C@@H]4OC[C@@H](O)[C@H](O)[C@@H]4O)[C@H]1O)[C@H]3O)C2=O | - | MT-4 | IIIB | - | <10 µg/mL
CC(C)(C)NC(=O)[C@@H]1C[C@@H]2CCCC[C@@H]2CN1C[C@@H](O)[C@H](Cc1ccccc1)NC(=O)O[C@@H]1CO[C@@H]2OCC[C@@H]21 | - | MT-4 | IIIB | - | <0.2 µM
CC(C)C[C@H](NC(=O)[C@H](C/C=C/c1ccccc1)C[C@H](O)[C@H](Cc1ccccc1)NC(=O)OC(C)(C)C)C(=O)N[C@@H](Cc1ccccc1)C(N)=O | - | H9 | IIIB | - | <6 µM
[NH4+] | - | C8166 | IIIB | - | >100 µg/mL
CO[C@@H]1[C@@H](OC(N)=O)[C@@H](O)[C@H](Oc2ccc3c(O)c(NC(=O)c4ccc(O)c(CC=C(C)C)c4)c(=O)oc3c2C)OC1(C)C | - | HuT-78 + HUT 78 | - | - | >78 µg/mL
Nc1ccn([C@H]2CC[C@@H](COC(=O)C(=O)N3CCCC3C(=O)N[C@H](Cc3ccccc3)C(=O)OCc3ccccc3)O2)c(=O)n1 | - | MT-4 | IIIB | - | 1.3 µM
CC(C)(C)OC(=O)[C@@H]1CCCN1C(=O)[C@@H](O)[C@H](Cc1ccccc1)NC(=O)[C@H](CC(N)=O)NC(=O)c1cnc2ccccc2n1 | - | CEM | IIIB | - | 0.4 µM
CC(C)C[C@H](NC(=O)[C@H](Cc1ccccc1)C[C@H](O)[C@H](Cc1ccccc1)NC(=O)OC(C)(C)C)C(N)=O | - | H9 | IIIB | - | <6 µM
Cc1c(Sc2ccccc2)n(COCCO)c(=O)[nH]c1=O | clinical isolate | MT-4 | HE | - | 16 µM
Cc1cc2c(C(C)C)c(O)c(O)c(C=O)c2c(O)c1-c1c(C)cc2c(C(C)C)c(O)c(O)c(C=O)c2c1O | - | MT-4 | LAV-A | - | 1 µM
COC(=O)[C@H](C)NP(=O)(OC[C@@H]1C=C[C@H](n2cnc3c(N)ncnc32)O1)Oc1ccccc1 | - | MM + M/M | BaL | - | 0.008 µM
Nc1ncnc2c1ncn2[C@H]1CC[C@@H](COC(=O)C(=O)N2CCCC2C(=O)N[C@H](Cc2ccccc2)C(=O)OCc2ccccc2)O1 | - | MT-4 | IIIB | - | 12 µM
CC(C)Nc1cccnc1N1CCN(C(=O)c2cc3cc(NS(C)(=O)=O)ccc3[nH]2)CC1 | - | MT-4 | MF | - | ~0.05 µM
CC(C)(C)NC(=O)[C@@H]1C[C@@H]2CCCC[C@@H]2CN1C[C@@H](O)[C@H](Cc1ccccc1)NC(=O)[C@H](CC(N)=O)NC(=O)c1ccc2ccccc2n1 | - | HUT-78/IIIB/LAI + HUT 78 | IIIB/LAI | - | >44 µM
COC(=O)C(=O)N1CCC[C@H]1C(=O)N[C@@H](Cc1ccccc1)C(=O)OCc1ccccc1 | - | MT-4 | IIIB | - | 6.8 µM
CCn1cc(C(=O)O)c(=O)c2ccc(C)nc21 | - | HuT-78 + HUT 78 | - | - | >79 µg/mL
COc1cc(O)c2c(c1)C(=O)c1c(cc3c(c1O)-c1c(cc(C)c(C(=O)N[C@H](C)C(=O)O)c1O)[C@H](O[C@@H]1O[C@H](C)[C@H](O)[C@H](O)[C@H]1O)[C@H]3O)C2=O | - | MT-4 | IIIB | - | >30 µg/mL
CC(C)(C)OC(=O)[C@@H]1CCCN1C(=O)[C@@H](O)[C@H](Cc1ccccc1)NC(=O)[C@H](CC(N)=O)NC(=O)OCc1ccccc1 | - | CEM | IIIB | - | 1.3 µM
CC(C)(C)OC(=O)N[C@@H](Cc1ccccc1)[C@@H](O)C[C@@H](Cc1ccc(OCCN2CCOCC2)cc1)C(=O)N[C@H]1c2ccccc2C[C@H]1O | - | MT-4 | IIIB | - | <0.025 µM
Cc1cn([C@H]2C[C@H](N=[N+]=[N-])[C@@H](COC(=O)[C@H](CCCN=C(N)N)NC(=O)[C@@H]3CCCN3C(=O)[C@H](CCCCN)NC(=O)[C@@H](N)[C@@H](C)O)O2)c(=O)[nH]c1=O | - | CEM | - | - | 0.0006 µg/mL
Nc1ncnc2c1ncn2[C@H]1CC[C@@H](CO)O1 | - | MM + M/M | BaL | - | 1 µM
CC(C)(C)OC(=O)N[C@@H](Cc1ccccc1)[C@@H](O)C[C@@H](Cc1ccc(OCCCN2CCOCC2)cc1)C(=O)N[C@H]1c2ccccc2C[C@H]1O | - | H9 | IIIB | - | <0.2 µM
CC(C)CC(NC(=O)C(Cc1ccccc1)NC(=O)C(N)CO)C(=O)NC(C(=O)O)C(C)O | - | MT-4 | IIIB | - | 100 µM
Nc1ccn([C@H]2CC[C@@H](CO)O2)c(=O)n1 | - | MM + M/M | BaL | - | 0.003 µM
C1CNCCNCCCN(CCCN2CCCNCCNCCCNCC2)CCNC1 | - | CEM | IIIB | - | 1.24 µM
Cc1cn([C@H]2C[C@H](N=[N+]=[N-])[C@@H](COC(=O)C(=O)N3CCCC3C(=O)N[C@@H](Cc3ccccc3)C(=O)OCc3ccccc3)O2)c(=O)[nH]c1=O | - | MT-4 | IIIB | - | 0.022 µM
Nc1ccn([C@H]2CC[C@@H](COP(=O)(OCC(Cl)(Cl)Cl)OCC(Cl)(Cl)Cl)O2)c(=O)n1 | - | C8166 | RF | - | 7 µM
CCCCCCCCCCCCCCCCCC(=O)N[C@@H](CO[C@@H]1O[C@H](CO)C(OS(=O)(=O)O)[C@H](OS(=O)(=O)O)[C@H]1NC(C)=O)C(=O)NCCCCCCCCCCCCCC | - | MT-4 | - | - | 30–100 µM
CC(C)(C)NC(=O)[C@@H]1CCCN1C(=O)[C@@H](O)[C@H](Cc1ccccc1)NC(=O)[C@H](CC(N)=O)NC(=O)c1cnc2ccccc2n1 | - | CEM | IIIB | - | 0.3 µM
COC(=O)[C@H](C)NP(=O)(OC[C@@H]1CC[C@H](n2cnc3c(N)ncnc32)O1)Oc1ccccc1 | - | MM + M/M | BaL | - | 0.004 µM
COc1cc(O)c2c(c1)C(=O)c1c(cc3c(c1O)-c1c(cc(C)c(C(=O)N[C@H](C)C(=O)O)c1O)[C@H](O[C@@H]1O[C@H](C)[C@H](O)[C@H](O[C@@H]4OC[C@@H](O)[C@H](O)[C@H]4O)[C@H]1O)[C@H]3O)C2=O | - | MT-4 | IIIB | - | <10 µg/mL
COc1ccc2c(c1)N(C(=O)OC(C)C)[C@@H](CSC)C(=S)N2 | - | H9 | MN | - | 0.006 µM
Nc1ccn([C@H]2CC[C@@H](CO)O2)c(=O)n1 | - | C8166 | RF | - | 0.2 µM
Cc1cn([C@H]2C[C@H](N=[N+]=[N-])[C@@H](CO)O2)c(=O)[nH]c1=O | - | CEM | I-232 | - | <0.01 µM
Cc1cn([C@@H]2O[C@H](CO)[C@@H](N=[N+]=[N-])[C@@H]2F)c(=O)[nH]c1=O | - | H9 | IIIB | - | >100 µM
Nc1nc(N)c2ncn(CCOCP(=O)(O)O)c2n1 | - | H9 | IIIB | - | <0.2 µM
CC(C)C[C@H](NC(=O)[C@H](Cc1ccccc1)C[C@H](O)[C@H](Cc1ccccc1)NC(=O)OC(C)(C)C)C(=O)NCc1ccccc1 | - | H9 | IIIB | - | <3 µM
Nc1ccn([C@H]2CC[C@@H](CO)O2)c(=O)n1 | - | MT-4 | IIIB | - | 1.6 µM
COC(=O)c1cc2c(c(OC)c1-c1ccc(N(C)C)cc1)OCO2 | - | C8166 | NL4-3 | Y181C | 23.7 µM
CC(=O)Oc1c(-c2c(C)cc3c(C(C)C)c(O)c(O)c(C#N)c3c2OC(C)=O)c(C)cc2c(C(C)C)c(O)c(O)c(C#N)c12 | - | MT-4 | LAV-A | - | 32 µM

The last 5 rows once more:

Nc1nc(N)c2ncn(CCOCP(=O)(O)O)c2n1 ; cell line: H9 ; strain or isolate: IIIB ; result: <0.2 µM
CC(C)C[C@H](NC(=O)[C@H](Cc1ccccc1)C[C@H](O)[C@H](Cc1ccccc1)NC(=O)OC(C)(C)C)C(=O)NCc1ccccc1 ; cell line: H9 ; strain or isolate: IIIB ; result: <3 µM
Nc1ccn([C@H]2CC[C@@H](CO)O2)c(=O)n1 ; cell line: MT-4 ; strain or isolate: IIIB ; result: 1.6 µM
COC(=O)c1cc2c(c(OC)c1-c1ccc(N(C)C)cc1)OCO2 ; cell line: C8166 ; strain or isolate: NL4-3 ; changes: Y181C ; result: 23.7 µM
CC(=O)Oc1c(-c2c(C)cc3c(C(C)C)c(O)c(O)c(C#N)c3c2OC(C)=O)c(C)cc2c(C(C)C)c(O)c(O)c(C#N)c12 ; cell line: MT-4 ; strain or isolate: LAV-A ; result: 32 µM